Assay: Diffusion of photosensitizing compound into dentin, tooth cross-sections (FIG. 2)

## CN(C)c1ccc2nc3ccc(=[N+](C)C)cc-3sc2c1 [methylene blue]
MB 100 micro-molar dissolved in the polyethylene glycol, ethanol and water mixture
  Penetration into the dentin: substantially better
MB 100 micro-molar mixed only in water
  Penetration into the dentin: very little penetration
MB in the PEG/ethanol/water carrier solution
  Penetration depth into the dentin: up to 2 mm

Reference: patent publication US9987200B2, “Activated micro-bubble based root canal disinfection” (SyACT, LLP, priority 2014, dated 2018)
